Measured values from several laboratories, pooled; numbers as filed in NIAID ChemDB.

Common to all: tests on isolated targets; agent: HIV-1; protein: Protease

ICn is the concentration giving n% inhibition. Lines come from different laboratories, so protocols vary. An empty or dashed field is not shown. a–b is a range or a potency band.

structure	read by	endpoint	strain or isolate	conditions	result
Cc1cc(SC2=C(O)C[C@@](CCc3ccc(N)cc3)(C(C)C)OC2=O)c(C(C)(C)C)cc1CO	-	IC50	IIIB	-	0.00009 µM
CCC(C)[C@H](NC(=O)[C@H](C(C)C)[C@@H](O)[C@H](O)[C@H](CC1CCCCC1)NC(=O)c1ccccc1SCCCCC[C@@H]1SC[C@@H]2NC(=O)NC21)C(=O)NCc1ccccn1	-	Ki	-	-	0.01 µM
Cc1ccc(Cl)cc1N1CCN(Cc2cn([C@@H](Cc3ccccc3)[C@H](Cc3ccccc3)NC(=O)OC3CCCCC3)nn2)CC1	fluorescence	IC50	-	-	<5 µM
CC[C@H](C)C(NC(=O)[C@@H]1CCCN1C[C@@H](O)[C@@H]1Cc2ccc(cc2)OCCCC(=O)N[C@@H](CC(N)=O)C(=O)N1)C(N)=O	fluorescence	IC50	-	-	8.5 µM
O=c1oc2c(c(O)c1C(c1cccc(NC(=S)Cc3ccccc3)c1)C1CC1)CCCCCC2	substrate cleavage	Ki	-	-	0.32 µM
O=C(O)CCCCCCCCC(=O)O	fluorescence	IC50	-	-	380 µM
CC[C@H](C)[C@H](NC(=O)[C@H](Cc1ccccc1)N[C@@H](O)CC(=O)[C@H](Cc1ccccc1)NC(=O)[C@@H](NC(=O)[C@H](CC(C)C)NC(C)=O)C(C)C)C(=O)N[C@H](C(N)=O)C(C)C	fluorescence	IC50	-	-	0.005 µM
CCCN=C(Nc1nc2c(C)cccc2s1)N[C@@H]1OC[C@@H](OC(C)=O)[C@H](OC(C)=O)[C@H]1OC(C)=O	-	IC50	-	-	28.37 µg/mL
CCC(C1=C(O)C2CCCC2OC1=O)c1cccc(NS(=O)(=O)c2ccc(C#N)cn2)c1	substrate cleavage	Ki	-	-	0.00015 µM
CC(C)(C)CC(=O)N[C@@H](Cc1ccccc1)[C@H](O)CNC[C@@H](O)[C@H](Cc1ccccc1)NC(=O)OC(C)(C)C	HPLC	IC50	-	pH 5.5	<10 µM
CC(C)[C@H](NC(=O)OCCN1CCOCC1)C(=O)N[C@@H](Cc1ccccc1)[C@H](O)[C@H](O)[C@H](Cc1ccccc1)NC(=O)[C@@H](NC(=O)OCCN1CCOCC1)C(C)C	fluorescence	IC50	-	-	>0.01 µM
CC(C)[C@H](NC(=O)N(C)Cc1ccccn1)C(=O)N[C@@H](Cc1ccccc1)[C@H](O)[C@H](O)[C@H](Cc1ccccc1)NC(=O)[C@@H](NC(=O)N(C)Cc1ccccn1)C(C)C	HPLC	IC50	-	-	0.0023 µM
O=C(O)CCCCCCCCCC(=O)O	fluorescence	IC50	-	-	>1000 µM
CCC(c1cccc(NS(=O)(=O)c2ccc(C#N)cn2)c1)c1c(O)c2c(oc1=O)CCCCCC2	substrate cleavage	Ki	-	-	0.000007 µM
C=C1[C@@H](C)[C@H]2[C@H](Cc3ccccc3)NC(=O)[C@]23[C@H](OC(C)=O)/C=C/[C@@H](C)C[C@@H](C)C/C=C/[C@H]3[C@@H]1O	-	Ki	-	-	1 µM
O=c1c(O)c(-c2ccc(O)cc2)oc2cc(O)cc(O)c12	-	IC50	-	-	2 µg/mL
CC(C)[C@H](NC(=O)OCc1ccccc1)C(=O)N[C@@H](Cc1ccccc1)[C@H](O)CNC[C@@H](O)[C@H](Cc1ccccc1)NC(=O)[C@H](CC(N)=O)NC(=O)OC(C)(C)C	HPLC	IC50	-	pH 5.5	10 µM
CC[C@H](C)[C@H](NC(=O)[C@H](Cc1ccccc1)NC[C@H](O)[C@H](Cc1ccccc1)NC(=O)[C@@H](NC(=O)[C@H](CC(C)C)NC(C)=O)C(C)C)C(=O)N[C@H](C(N)=O)C(C)C	fluorescence	IC50	-	-	0.005 µM
CC(C)[C@H](NC(=O)OCc1ccccc1)C(=O)NC(Cc1ccccc1)C(O)C(F)(F)C(Cc1ccccc1)NC(=O)[C@@H](NC(=O)OCc1ccccc1)C(C)C	fluorescence	IC50	-	-	<0.001 µM
CC(C)CNC(=O)[C@H](OCc1ccccc1)[C@H](O)[C@@H](O)[C@@H](OCc1ccccc1)C(=O)N[C@H]1c2ccccc2C[C@H]1O	fluorescence	Ki	-	-	0.07 µM
Cc1cccc(N2CCN(Cc3cn([C@@H](Cc4ccccc4)[C@H](Cc4ccccc4)NC(=O)OC4CCCC4)nn3)CC2C)c1	fluorescence	IC50	-	-	<5 µM
CS(=O)(=O)Nc1cccc(C(c2c(O)c3c(oc2=O)CCCCCC3)C2CC2)c1	-	Ki	-	-	0.011 µM
O=C(N[C@@H](Cc1ccccc1)[C@H](Cc1ccccc1)n1cc(CN2CCN(c3cnccn3)CC2)nn1)OC1CCCC1	fluorescence	IC50	-	-	>5 µM
O=C(OCC1OC(OCCc2ccccc2)C(O)C(O)C1O)c1cc(O)c(O)c(O)c1	-	IC50	-	-	>200 µg/mL
CCC(c1cccc(NS(=O)(=O)c2ccc(C#N)cn2)c1)c1c(O)c2c(oc1=O)CCCCC2	substrate cleavage	Ki	-	-	0.000018 µM
CC[C@H](C)[C@H](NC(=O)[C@@H]1CCCN1C[C@H](O)[C@H](Cc1ccccc1)NC(=O)[C@H](CC(N)=O)NC(=O)[C@H](CC(C)C)NC(=O)[C@H](CO)NC(C)=O)C(=O)N[C@H](C(=O)OC)C(C)C	fluorescence	IC50	-	-	0.001 µM
CC(C)[C@H](NC(=O)N(C)Cc1ccccn1)C(=O)N[C@@H](Cc1ccccc1)[C@H](O)[C@H](O)[C@H](Cc1ccccc1)NC(=O)[C@@H](NC(=O)N(C)Cc1ccccn1)C(C)C	substrate cleavage	Ki	-	-	0.00001 µM
CCC(C1=C(O)C2CCCCCC2OC1=O)c1cccc(NS(=O)(=O)c2ccc(C#N)cn2)c1	substrate cleavage	Ki	-	-	0.0002 µM
N[C@@H](CCC(=O)N[C@@H](CSN=O)C(=O)NCC(=O)O)C(=O)O	-	IC50	-	-	<30 µM
CC[C@H](C)[C@@H]1NC(=O)[C@@H](NC[C@@H](O)[C@H](Cc2ccc(OCC(=O)OC)cc2)NC(=O)OC(C)(C)C)Cc2ccc(cc2)OCCCNC1=O	fluorescence	IC50	-	-	0.015 µM
O=C(O)CCCCCC(=O)CCCCCCCCC(=O)CCCCCC(=O)O	fluorescence	IC50	-	-	200 µM
CC1(C)O[C@H]2CC(=O)OC[C@]23[C@H]2CC[C@@]4(C)[C@H](c5ccoc5)OC(=O)[C@H]5O[C@]54[C@]2(C)C(=O)C[C@@H]13	-	IC50	-	-	20 µM
O=C(N[C@@H](Cc1ccccc1)[C@H](Cc1ccccc1)n1cc(CN2CCN(c3ccc(Cl)cc3)CC2)nn1)OC1CCCC1	fluorescence	IC50	-	-	<5 µM
CC(C)(C)OC(=O)N[C@@H](Cc1ccccc1)[C@H](O)CNC[C@@H](O)[C@H](Cc1ccccc1)NC(=O)C(C)(C)CO	HPLC	IC50	-	pH 5.5	~10 µM
COc1ccc(S(=O)(=O)N(CC(C)C)C[C@@H](O)[C@H](Cc2ccccc2)NC(=O)O[C@H]2CCC[C@H]3O[C@@H]4OCC[C@@H]4[C@@H]23)cc1	substrate cleavage / fluorescence	Ki	-	-	0.0167 µM
CC(C)[C@H](NC(=O)NCc1ccccn1)C(=O)N[C@@H](Cc1ccccc1)C(O)[C@H](Cc1ccccc1)NC(=O)[C@@H](NC(=O)NCc1ccccn1)C(C)C	fluorescence	IC50	-	-	>0.001 µM
O=C(N[C@@H](Cc1ccccc1)[C@H](Cc1ccccc1)n1cc(CN2CCN(c3ccc(F)cc3F)CC2)nn1)OC1CCCC1	fluorescence	IC50	-	-	<5 µM
CC[C@H](C)[C@H](NC(=O)[C@@H]1CCCN1CC(O)[C@@H]1Cc2ccc(cc2)OCC(=O)N[C@@H](CCC(N)=O)C(=O)N[C@@H](C(N)=O)C(=O)N1)C(=O)N[C@H](C(N)=O)C(C)C	fluorescence	IC50	-	-	0.04 µM
CCCCCCCCCCCCCCCC(=O)N[C@@H](Cc1ccc(O)cc1)C(=O)N[C@@H](CCC(=O)O)C(=O)N[C@@H](CC(C)C)C(=O)O	-	Ki	-	-	0.011 µM
CC(C)[C@H](NC(=O)OCc1ccccc1)C(=O)N[C@@H](Cc1ccccc1)[C@@H](O)CNC[C@@H](O)[C@H](Cc1ccccc1)NC(=O)OC(C)(C)C	HPLC	IC50	-	pH 5.5	10 µM
CNC(=O)[C@@H](NC(=O)[C@H](OCc1ccccc1)[C@H](O)[C@@H](O)[C@@H](OCc1ccccc1)C(=O)N[C@H]1c2ccccc2C[C@H]1O)C(C)C	fluorescence	Ki	-	-	0.0002 µM
CCC(C)[C@H](NC(=O)[C@@H](C[C@H](O)[C@H](CC1CCCCC1)NC(=O)C(Cc1cnc[nH]1)N(C)C(=O)COc1cccc2ccccc12)C(C)C)C(=O)NCc1ccccn1	-	Ki	-	-	0.03 µM
O=C(N[C@H]1c2ccccc2C[C@H]1O)[C@H](OCc1ccccc1)[C@H](O)[C@@H](O)[C@@H](OCc1ccccc1)C(=O)N[C@H]1c2ccccc2C[C@H]1O	fluorescence	Ki	-	-	0.0004 µM
O=c1c2ccccc2n2nnc3ccc(NCCCN4CCN(CCCNc5ccc6nnn7c8ccccc8c(=O)c5c67)CC4)c1c32	HPLC	IC50	-	-	>100 µM
COc1ccc(S(=O)(=O)N(CC(C)C)CC(O)C(NC(=O)OCc2ccccc2)Sc2ccccc2)cc1	-	IC50	BRU	-	0.01–1 µM
CC(C)[C@H](NC(=O)OCc1ccncc1)C(=O)N[C@@H](Cc1ccccc1)[C@@H](O)[C@H](O)[C@H](Cc1ccccc1)NC(=O)[C@@H](NC(=O)OCc1ccncc1)C(C)C	fluorescence	IC50	-	-	<0.005 µM
CCCCCCCCCCN=C(Nc1nc2ccc(OC)cc2s1)N[C@@H]1OC[C@@H](OC(C)=O)[C@H](OC(C)=O)[C@H]1OC(C)=O	-	IC50	-	-	73.93 µg/mL
CC[C@H](C)C(NC(=O)[C@@H]1CCCN1C[C@@H](O)[C@@H]1Cc2ccc(cc2)OCC(=O)NCC(=O)N[C@@H](CC(N)=O)C(=O)N1)C(=O)N[C@H](C(N)=O)C(C)C	fluorescence	IC50	-	-	0.7 µM
CCCC1(CCc2ccccc2)CC(O)=C(C(c2cccc(NS(=O)(=O)c3ccc(C#N)cn3)c2)C(C)(C)C)C(=O)O1	fluorescence	Ki	-	-	0.019 µM
CCN(CC)c1ccc2cc3ccc(=[N+](CC)CC)cc-3oc2c1.CCN(CC)c1ccc2cc3ccc(=[N+](CC)CC)cc-3oc2c1.[Cl-].[Cl-].[Cl-].[Cl-].[Cl][Fe+][Cl].[Cl][Fe+][Cl]	fluorescence	IC50	-	-	17 µM
COc1ccc2nc(N/C(=N/[C@@H]3OC[C@@H](OC(C)=O)[C@H](OC(C)=O)[C@H]3OC(C)=O)NC(C)C)sc2c1	-	IC50	-	-	79.64 µg/mL
COC(=O)N[C@H](C(=O)N[C@@H](Cc1ccccc1)[C@H](O)CNC[C@@H](O)[C@H](Cc1ccccc1)NC(=O)OC(C)(C)C)C(C)C	HPLC	IC50	-	pH 5.5	<10 µM
CC[C@H](C)[C@H](NC(=O)[C@@H]1CCCN1C[C@@H](O)[C@H](Cc1ccccc1)NC(=O)[C@H](CC(N)=O)NC(=O)[C@H](CC(C)C)NC(C)=O)C(=O)N[C@H](C(N)=O)C(C)C	fluorescence	IC50	-	-	0.06 µM
CC(C)[C@H](NC(=O)OCc1nccs1)C(=O)N[C@@H](Cc1ccccc1)C(O)[C@H](Cc1ccccc1)NC(=O)[C@@H](NC(=O)OCc1nccs1)C(C)C	fluorescence	IC50	-	-	<0.01 µM
O=C(N[C@@H](Cc1ccccc1)[C@H](Cc1ccccc1)n1cc(CN2CCN(c3ncccn3)CC2)nn1)OC1CCCC1	fluorescence	IC50	-	-	>5 µM
COc1ccccc1CNC(=O)[C@H](OCc1ccccc1)[C@H](O)[C@@H](O)[C@@H](OCc1ccccc1)C(=O)N[C@H]1c2ccccc2C[C@H]1O	fluorescence	Ki	-	-	0.002 µM
CC(C)C[C@@H](N)C(=O)N[C@H](CC(=O)O)C(=O)N[C@H](CCC(=O)O)C(=O)O	-	Ki	-	-	>2000 µM
CCC(C1=C(O)C2CCCCC2OC1=O)c1ccccc1	substrate cleavage	Ki	-	-	0.67 µM
CC(C)(C)OC(=O)N[C@@H](Cc1ccccc1)[C@H](O)CNC[C@@H](O)[C@H](Cc1ccccc1)NC(=O)O[C@@H]1COC[C@H]1O	HPLC	IC50	-	pH 5.5	<10 µM